For 1 molecule, Kd results are on record in patent publication US20140315822A1.

For this test, the target named is T1, PDZ domain of the human MAST2 protein (human), Q6P0Q8.
T1 chain: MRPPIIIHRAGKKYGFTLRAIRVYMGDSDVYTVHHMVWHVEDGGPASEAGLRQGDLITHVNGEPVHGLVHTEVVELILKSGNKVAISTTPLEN
Put plainly: ITC, 298 K, MAST2-PDZ (30 µM) titrated with peptide.

SWEVHGQQTRL (modifications not checked) [454 (Neurovita 3)] showed a Kd of 62.9 nM.
